Measured values taken from article PMC5877874, “Prenylated phloroglucinols from Hypericum scruglii, an endemic species of Sardinia (Italy), as new dual HIV-1 inhibitors effective on HIV-1 replication” (PLoS ONE, 2018).

System: TZM-bl cells
Assay: Cell toxicity, metabolic XTT test
Assay type: cell-based, human
Details: read-out: CC50, TZM-bl cell viability
Experimental: The human TZM-bl indicator cell line was obtained from the American Type Culture Collection (Manassas, VA) and maintained at 37°C and 5% CO2 in Dulbecco's modified Eagle's medium (DMEM) containing 10% fetal bovine serum, 50 μg/mLpenicillin, and 50 μg/mL streptomycin. The HIV-1 virus NL(AD8) was titrated as follows: serial 5-fold dilutions of the virus were made in quadruplicate wells in 96-well culture plates, in a total volume of 100 μL of growth medium, for a total of 8 dilution steps. Freshly trypsinized cells (20,000 cells in 100 μL of growth medium containing 75 μg/mL DEAE-dextran) were added to each well, and the plates were incubated at 37°C in a humidified 5% CO2-95% air environment. After 48 h of incubation, the medium was removed and viral infection was quantified using a β-galactosidase (CPRG) assay (Roche). Twenty thousand TZM-bl cells/well were seeded in 96-well plates in complete DMEM supplemented with 30 μg/mL DEAE-dextran (Sigma-Aldrich). […] The TZM-bl indicator cell line has an integrated copy of the β-galactosidase gene under control of the HIV-1 promoter. Β-Galactosidase expression, measured by use of a chlorophenol red/β-D-galactopyranoside (CPRG) assay (Roche) in cell lysates 48 h post-infection was used as a marker of HIV infection. […]

Maraviroc [reference compound]
CC50: > 20 µM
